## PSTVd loop 15 mutant pool in Nicotiana benthamiana

Data from the supplement of Wu et al. 2024, doi:10.1371/journal.ppat.1012142.

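A pool of all variants was put on leaves of three Nicotiana benthamiana plants. Progeny were sequenced from the inoculated region (day 5), the margin of the inoculated leaf (day 10) and systemic leaves (day 12).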

PSTVd intermediate strain, loop 15: wild type GGAAACCGCUACUAC, pool pattern GGAAACCGNNNNNNC; upper and lower strand joined, each 5' to 3', the first 7 letters being the upper strand, closing pairs included.

Numbers give reads per thousand; 0 = not seen among the reads, higher = more abundant. Each site shows the three plants. "Pool" is the share in the plasmid pool used as inoculum, on the same scale. The inoculated region was read from the minus strand, the other sites from the plus strand. IR is the inoculated region, LM the leaf margin, Sys the systemic leaves. Wild type was 33.9 per thousand in the pool and the most common sequence in every sample (inoculated region 202, 200, 159; leaf margin 724, 746, 710; systemic leaves 856, 883, 880). The authors trace changes outside the varied positions to PCR and sequencing errors or to mutation in the plant; presence does not show that a variant is infectious alone. With 43,870-66,106 reads a sample, very low values are single reads.

| sequence | pool | IR | LM | Sys |
|---|---|---|---|---|
| GGAAACCGAACAAUC | 0.256 | 0.213 0.321 0.190 | 0 0 0 | 0 0 0 |
| GGAAACCGAACACAC | 0.208 | 0.0819 0.129 0.0952 | 0 0 0.0200 | 0 0 0 |
| GGAAACCGAACACCC | 0.272 | 0.0819 0.0482 0.114 | 0 0 0 | 0 0 0 |
| GGAAACCGAACACGC | 0.176 | 0.147 0.209 0.114 | 0 0 0.0200 | 0 0 0 |
| GGAAACCGAACACUC | 0.160 | 0.0655 0.0803 0.0762 | 0.0162 0 0.0200 | 0 0 0 |
| GGAAACCGAACAGAC | 0.240 | 0.147 0.0643 0.0952 | 0.0162 0.0223 0 | 0 0 0 |
| GGAAACCGAACAGCC | 0.224 | 0.147 0.0643 0.0571 | 0.0162 0.0223 0.0601 | 0 0 0 |
| GGAAACCGAACAGGC | 0.192 | 0.278 0.145 0.305 | 0 0 0 | 0.0644 0 0 |
| GGAAACCGAACAGUC | 0.208 | 0.0655 0.0964 0.114 | 0 0 0.0401 | 0 0 0 |
| GGAAACCGAACAUAC | 0.304 | 0.278 0.225 0.343 | 0.0808 0.134 0.200 | 0.0644 0 0 |
| GGAAACCGAACAUCC | 0.128 | 0.0819 0.0482 0.114 | 0.0162 0 0 | 0 0 0 |
| GGAAACCGAACAUGC | 0.224 | 0.115 0.0643 0.0762 | 0.0162 0.0223 0 | 0 0 0 |
| GGAAACCGAACAUUC | 0.240 | 0.0491 0.0643 0.0571 | 0 0 0.0200 | 0 0 0 |
| GGAAACCGAACCAAC | 0.272 | 0.0983 0.129 0.0381 | 0 0.0223 0 | 0 0 0 |
| GGAAACCGAACCACC | 0.208 | 0.180 0.161 0.152 | 0.0162 0 0.0200 | 0 0 0 |
| GGAAACCGAACCAGC | 0.208 | 0.0655 0.112 0.114 | 0 0.0223 0 | 0 0 0 |
| GGAAACCGAACCAUC | 0.400 | 0.0491 0.112 0.0952 | 0.0162 0 0.0200 | 0.0161 0 0 |
| GGAAACCGAACCCAC | 0.288 | 0.147 0.129 0.133 | 0 0 0.0200 | 0 0 0 |
| GGAAACCGAACCCCC | 0.208 | 0.147 0.0803 0.0952 | 0.0162 0 0 | 0.0161 0 0.0228 |
| GGAAACCGAACCCGC | 0.112 | 0.0655 0.0803 0.0571 | 0.0162 0.0223 0 | 0 0 0 |
| GGAAACCGAACCCUC | 0.208 | 0.147 0.0482 0.114 | 0 0 0.0401 | 0 0 0 |
| GGAAACCGAACCGAC | 0.192 | 0.0983 0.0964 0.0571 | 0 0 0 | 0 0 0 |
| GGAAACCGAACCGCC | 0.144 | 0.115 0.145 0.0952 | 0.0323 0.0223 0 | 0 0 0 |
| GGAAACCGAACCGGC | 0.176 | 0.115 0.0803 0.0952 | 0 0 0 | 0.0161 0 0 |
| GGAAACCGAACCGUC | 0.240 | 0.115 0.0803 0.133 | 0 0 0 | 0.0161 0 0 |
| GGAAACCGAACCUAC | 0.160 | 0.328 0.289 0.400 | 0.162 0.0223 0.0401 | 0.0483 0 0 |
| GGAAACCGAACCUCC | 0.272 | 0.0819 0.193 0.114 | 0 0 0 | 0 0 0 |
| GGAAACCGAACCUGC | 0.224 | 0.147 0.0803 0.133 | 0 0 0 | 0 0 0 |
| GGAAACCGAACCUUC | 0.288 | 0.131 0.0321 0.0952 | 0 0 0 | 0 0 0 |
| GGAAACCGAACGAAC | 0.272 | 0.344 0.305 0.400 | 0.0162 0 0.0200 | 0 0 0 |
| GGAAACCGAACGACC | 0.272 | 0.0491 0.0803 0.0571 | 0 0 0 | 0 0 0 |
| GGAAACCGAACGAGC | 0.320 | 0.115 0.0803 0.0571 | 0 0 0 | 0 0 0 |
| GGAAACCGAACGAUC | 0.320 | 0.0655 0.129 0.0571 | 0 0 0 | 0 0 0 |
| GGAAACCGAACGCAC | 0.0960 | 0.229 0.193 0.209 | 0.0323 0.356 0.0200 | 0.0161 0.0151 0 |
| GGAAACCGAACGCCC | 0.176 | 0.147 0.0321 0.0571 | 0 0 0 | 0 0 0 |
| GGAAACCGAACGCGC | 0.336 | 0.0491 0.0964 0.0952 | 0 0 0 | 0 0 0 |
| GGAAACCGAACGCUC | 0.288 | 0.115 0.241 0.228 | 0.0162 0 0.0200 | 0 0 0 |
| GGAAACCGAACGGAC | 0.288 | 0.0983 0.0803 0.114 | 0.0162 0 0 | 0 0 0 |
| GGAAACCGAACGGCC | 0.256 | 0.0655 0.0482 0.0762 | 0.0162 0.0223 0.0200 | 0 0 0 |
| GGAAACCGAACGGGC | 0.288 | 0.131 0.0803 0.152 | 0 0 0.0200 | 0 0 0 |
| GGAAACCGAACGGUC | 0.288 | 0.0491 0.0643 0.0762 | 0 0 0.0200 | 0 0 0 |
| GGAAACCGAACGUAC | 0.272 | 0.262 0.225 0.457 | 0.0970 0.156 0.160 | 0.0322 0.0454 0.0684 |
| GGAAACCGAACGUCC | 0.240 | 0.0983 0.129 0.0571 | 0.0162 0 0.0401 | 0 0 0 |
| GGAAACCGAACGUGC | 0.240 | 0.475 0.353 0.419 | 0.0970 0.0891 0.140 | 0.0161 0 0 |
| GGAAACCGAACGUUC | 0.192 | 0.377 0.402 0.267 | 0.113 0.0445 0.100 | 0.0322 0.0756 0.0684 |
| GGAAACCGAACUAAC | 0.272 | 0.0655 0.177 0.0571 | 0 0 0.0200 | 0 0 0.0456 |
| GGAAACCGAACUACC | 0.224 | 0.0655 0.0643 0.0952 | 0.0162 0 0 | 0 0 0 |
| GGAAACCGAACUAGC | 0.192 | 0.0983 0.0643 0.0952 | 0 0.0223 0.0401 | 0 0 0 |
| GGAAACCGAACUAUC | 0.224 | 0.115 0.209 0.133 | 0.0323 0.690 0.0601 | 0 0 0 |
| GGAAACCGAACUCAC | 0.192 | 0.164 0.257 0.114 | 0 0 0.0401 | 0 0 0 |
| GGAAACCGAACUCCC | 0.272 | 0.115 0.112 0.0952 | 0.0162 0 0.0401 | 0.0161 0 0 |
| GGAAACCGAACUCGC | 0.144 | 0.0655 0.0964 0.0952 | 0 0 0 | 0.0161 0 0 |
| GGAAACCGAACUCUC | 0.240 | 0.147 0.257 0.171 | 0 0 0.0200 | 0 0.0151 0 |
| GGAAACCGAACUGAC | 0.208 | 0.213 0.145 0.209 | 0.0162 0 0 | 0.0161 0 0 |
| GGAAACCGAACUGCC | 0.320 | 0.115 0.0803 0.0952 | 0 0 0.0401 | 0 0 0 |
| GGAAACCGAACUGGC | 0.256 | 0.180 0.112 0.190 | 0 0 0.0200 | 0 0 0 |
| GGAAACCGAACUGUC | 0.224 | 0.115 0.0482 0.0381 | 0 0 0.0200 | 0.0161 0 0 |

Excerpt, the final 7 entries:

GGAAACCGAACUCCC (pool 0.272): IR 0.115 0.112 0.0952; LM 0.0162 0 0.0401; Sys 0.0161 0 0.
GGAAACCGAACUCGC (pool 0.144): IR 0.0655 0.0964 0.0952; LM 0 0 0; Sys 0.0161 0 0.
GGAAACCGAACUCUC (pool 0.240): IR 0.147 0.257 0.171; LM 0 0 0.0200; Sys 0 0.0151 0.
GGAAACCGAACUGAC (pool 0.208): IR 0.213 0.145 0.209; LM 0.0162 0 0; Sys 0.0161 0 0.
GGAAACCGAACUGCC (pool 0.320): IR 0.115 0.0803 0.0952; LM 0 0 0.0401; Sys 0 0 0.
GGAAACCGAACUGGC (pool 0.256): IR 0.180 0.112 0.190; LM 0 0 0.0200; Sys 0 0 0.
GGAAACCGAACUGUC (pool 0.224): IR 0.115 0.0482 0.0381; LM 0 0 0.0200; Sys 0.0161 0 0.